Values quoted from earlier work, collected in patent US8978468B2, “Nonvisual indication of an unwanted chemical in an ingestible substance” (priority 2009, dated 2015).

Tested on: rat

N-methylmethanamine
Toxic Dose oral-rat LD50: oral-rat LD50 698 mg/kg
